For one data set, the system named is adult worms. As to the kind of experiment: Inhibition studies on cultured adult worms. To be noted: for speed of antischistosomal activity: 40 µg/ml or 80 µg/ml, 2 h or 24 h; for mortality rate: primary screening, 25 µg/ml; for LD50 (median lethal dose): secondary screening, at 72 hours; for reversibility of effects on worms: data not shown. The procedure:
(§1) Mice infected with cercariae (400–600 cercariae per mice for juvenile worms and 80–100 cercariae per mice for adult worms) were scarified at 14 days and 35 days post-infection for juvenile worms and adult worms, respectively. The freshly perfused worms were washed with saline and then cultured in RPMI 1640 medium supplemented with 300 µg/ml penicillin, 300 µg/ml streptomycin, 0.25 µg/ml amphotericin and 10% fetal bovine serum. Four of adult worms with good viability were transferred into each well of a 24-well Falcon plate containing 2 ml of the above culture medium. Compounds dissolved in DMSO were added to different final concentrations (for initial screening three concentrations 5 µg/ml, 25 µg/ml and 50 µg/ml were evaluated while for the second screening, five concentrations 5 µg/ml, 10 µg/ml, 20 µg/ml, 40 µg/ml and 80 µg/ml were used). Control worms were treated with an equal volume of carrier DMSO or RPMI 1640 medium, and worms treated with PZQ were also evaluated as a positive control. For each experimental condition, 12 worms evenly distributed in 3 wells were tested.
(§2) The worms were cultured at 37°C in an incubator with 5% CO2. Worm viability, morphological changes and mortality were monitored under an inverted microscope at 2 h, 16 h, 24 h, 48 h and 72 h post-treatment. Parasite death was defined as non-detectable activity for 2 minutes plus morphological and tegumental alterations. Worms with typical lesions were photographed and stored in 2.5% glutaraldehyde in PBS for electron microscope analysis. The median lethal dose (LD50) for each active compound was calculated by SPSS 18.0 software, with a confidence interval of 95%. The inhibition study was initially performed with adult worms, and then the compounds identified as active were also tested on juvenile worms with the similar methods described above.
Schistosome samples were fixed in 2.5% glutaraldehyde in PBS at 4°C for 2 h and then washed with PBS three times. The samples were further fixed in 1% Osmium tetroxide buffer. After ethanol dehydration and critical point drying, samples were mounted on microscope stubs, followed by gold sputtering for 3 min in IB-3 ion-sputtering instrument (Hitachi, Japan). A S-520 SEM (Hitachi, Japan) was utilized with an accelerating voltage of 30 kV for the observation.

Chains of the proteins cited; added tags and fusions are not shown. Residues count along the entry.
UniProt Q5DB51, 1-265: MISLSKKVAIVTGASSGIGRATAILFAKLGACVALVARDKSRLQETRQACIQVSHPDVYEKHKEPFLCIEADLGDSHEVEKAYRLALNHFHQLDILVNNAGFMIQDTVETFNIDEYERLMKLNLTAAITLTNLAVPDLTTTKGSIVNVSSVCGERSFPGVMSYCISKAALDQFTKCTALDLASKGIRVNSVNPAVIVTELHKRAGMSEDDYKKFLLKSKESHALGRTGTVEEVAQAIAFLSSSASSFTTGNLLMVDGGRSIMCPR

For data set [1], the target named is T1, rSjOAR (Schistosoma japonicum, UniProt Q5DB51). Description: BIAcore assay of binding to immobilized rSjOAR. To be noted: for KA (association constant): five concentrations 0.5-10 µM; for pKd: read-out: KD (dissociation constant), five concentrations 0.5-10 µM. As for the experimental part:
The binding capacities of small compounds identified by the virtual screen with rSjOAR were assessed using a BIAcore 3000 instrument (BIAcore AB, Uppsala, Sweden). The recombinant His-tag fusion protein SjOAR was immobilized onto an NTA chip. Compounds were injected at a concentration of 10 µM and a flow rate of 40 µl/min in HBS buffer (0.01 M HEPES, 0.15 M NaCl, 3.0 mM EDTA, 0.005% Tween 20, pH 7.4) containing 1‰ DMSO (Dimethyl sulfoxide). Electrical alterations on the sensor chip were monitored as a resonance signal by using the program supplied by the manufacturer. To further obtain kinetic parameters, a series of compound concentrations (0.5 µM, 1 µM, 2 µM, 5 µM and 10 µM) were measured. Data were analyzed by using the software with which the instrument was equipped.
(SPR reads the build-up and loss of mass on a sensor chip optically.)

Data set [2] concerns the target T1, rSjOAR. Description: Effect of active compounds on rSjOAR enzymatic activity.
The next data set concerns juvenile worms. Description: Inhibition studies on cultured juvenile worms. To be noted: for mortality: 40 µg, worms 14 days post infection. As for the experimental part:
as §1, §2

pKd: −log10 of the molar value. ≈ marks a conversion by molar mass, not a printed value.

Turning to `c1ccc2c(CN3CCN(Cc4ccc5c(c4)OCO5)CC3)c[nH]c2c1`, in the data set on adult worms (10 µg/ml, 48 h), the “morphological changes, optical microscopy” value (“morphological changes” for short) was “extensive blebs” and the “tegument alterations, scanning electron microscopy” value (from here on “tegument alterations”) is “blebs on the tegument were so severe that they fused together”. In the data set with adult worms, the “speed of antischistosomal activity” value was “significant activity in a relatively short time”, the mortality rate entry is given as “significant mortality rate” and the “LD50 (median lethal dose)” value is 19.7 ± 8.7 µg/mL. Moreover, the “LD50 (median lethal dose)” value with adult worms (corresponding molar value) was found to be 56.4 ± 24.9 µM. Further, on rSjOAR [1], the “Rmax (maximum binding capacity)” value turned out to be 50.3, the “KA (association constant)” value stood at 124000 M⁻¹ and the pKd is 5.09.
In general, IC50 refers to the concentration needed to halve the response being measured. High values mean weaker potency in that assay, low ones greater potency in that assay. The mortality is the percentage killed. `O=[N+]([O-])c1cc(Cl)ccc1N=Nc1cc(F)cc(F)c1O` came in with an adult worm mortality with adult worms (40 µg/ml) of 100%. Besides, in the data set on adult worms, the “speed of antischistosomal activity” value is reported as “significant activity in a relatively short time”, the “reversibility of effects on worms” value is “irreversible”, the mortality rate result is “significant mortality rate” and the “LD50 (median lethal dose)” value was 18.5 ± 6.1 µg/mL. Further, in the data set on adult worms (40 µg/ml, 24 h), the “morphological changes” value is “lots of thorns were distributed on the tegument” and the “tegument alterations” value is “Serious tegument peeling”. Further, in the data set on adult worms (corresponding molar value), the “LD50 (median lethal dose)” value came to 59.0 ± 19.4 µM. Moreover, at rSjOAR [1], the “Rmax (maximum binding capacity)” value is 40.7, the “KA (association constant)” value came to 5.41e+07 M⁻¹ and the pKd is 7.73. Moreover, the “reduction of rSjOAR activity” value on rSjOAR [2] (25 µg/ml, compared with carrier-treated group) worked out at 73%. Besides, the half-maximal inhibitory concentration (IC50) at rSjOAR [2] (in the first 15 min) worked out at 21.79 ± 1.33 µg/mL (≈ 69.5 µM). Besides, the “morphology of juvenile worms” value with juvenile worms is “became short and black”. The molecule also showed a mortality in the data set with juvenile worms (in 48 h) of 100%.
`Cc1c(C(=O)NCc2ccc(N3CCC(C)CC3)cc2)cnn1-c1ccc(Cl)cc1`: in the data set on adult worms (10 µg/ml, 48 h), the “morphological changes” value is “extensive blebs” and the “tegument alterations” value is listed as “blebs on the tegument were so severe that they fused together”. The adult worm mortality with adult worms (40 µg/ml) was found to be 75%. Also, in the data set on adult worms, the “speed of antischistosomal activity” value is on record as “slower”, the “reversibility of effects on worms” value was “irreversible”, the mortality rate result is listed as “significant mortality rate” and the “LD50 (median lethal dose)” value stood at 18.0 ± 7.6 µg/mL. Besides, in the data set with adult worms (corresponding molar value), the “LD50 (median lethal dose)” value is 42.5 ± 17.9 µM. For the same molecule, on rSjOAR [1], the “Rmax (maximum binding capacity)” value turned out to be 131.0, the “KA (association constant)” value was 27300 M⁻¹ and the pKd is 4.44. Besides, the “reduction of rSjOAR activity” value on rSjOAR [2] (80 µg/ml) is 45.71%. Besides, the “morphology of juvenile worms” value in the data set on juvenile worms is recorded as “varying degrees of blebs”. Moreover, in the data set with juvenile worms (in 72 h), the mortality is listed as 100%.
